## Fitness effects across NS2B and the NS3 protease domain of Zika virus

Source: Ni et al. 2025 (doi:10.1038/s41467-025-63602-z), supplementary data.

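Pools of virus carrying all single amino acid changes were selected for growth in Huh-7.5 cells. The effect is the change in frequency of a mutant, normalised to wild type, as a mean of three replicate libraries (two for positions 207-308). The study looked for pockets that tolerate few changes, as a guide for inhibitor design.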

The scanned region of Zika virus MR766 is shown below (positions 1-308): NS2B is 2-131, NS3 begins at position 132.
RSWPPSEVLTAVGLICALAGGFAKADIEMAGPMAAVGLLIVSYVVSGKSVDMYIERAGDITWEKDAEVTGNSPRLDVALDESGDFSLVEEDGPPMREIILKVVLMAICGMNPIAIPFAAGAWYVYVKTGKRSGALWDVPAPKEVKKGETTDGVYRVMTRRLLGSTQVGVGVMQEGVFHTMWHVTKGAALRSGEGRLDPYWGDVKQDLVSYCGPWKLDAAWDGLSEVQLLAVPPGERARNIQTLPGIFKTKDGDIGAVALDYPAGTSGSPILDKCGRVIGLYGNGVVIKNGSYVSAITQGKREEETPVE

The number is log2 of the effect relative to wild type; negative values mean reduced growth, higher values better tolerance.
Substitutions are written as wild-type residue, site number, new residue.
All changes here are to isoleucine.

With R1I the assay gave -6.91.
With S2I the assay gave -6.51.
With W3I the assay gave -4.50.
With P4I the assay gave -5.07.
With P5I the assay gave -5.87.
With S6I the assay gave -6.82.
With E7I the assay gave -6.23.
With V8I the assay gave -1.46.
With L9I the assay gave -3.44.
With T10I the assay gave -3.83.
With A11I the assay gave -5.84.
With V12I the assay gave -2.51.
With G13I the assay gave -5.82.
With L14I the assay gave -0.73.
With C16I the assay gave -6.45.
With A17I the assay gave -2.37.
With L18I the assay gave -1.79.
With A19I the assay gave -4.93.
With G20I the assay gave -5.99.
With G21I the assay gave -5.38.
With F22I the assay gave -0.81.
With A23I the assay gave -3.56.
With K24I the assay gave -5.91.
With A25I the assay gave 0.17.
With D26I the assay gave -4.94.
With E28I the assay gave -4.17.
With M29I the assay gave -1.37.
With A30I the assay gave -1.09.
With G31I the assay gave -5.65.
With P32I the assay gave -4.73.
With M33I the assay gave -0.39.
With A34I the assay gave -4.81.
With A35I the assay gave -5.72.
With V36I the assay gave -0.08.
With G37I the assay gave -5.28.
With L38I the assay gave -3.40.
With L39I the assay gave -2.49.
With V41I the assay gave -0.74.
With S42I the assay gave -6.27.
With Y43I the assay gave -6.35.
With V44I the assay gave -1.60.
With V45I the assay gave -1.63.
With S46I the assay gave -4.15.
With G47I the assay gave -6.17.

The authors count -1 or higher as tolerated. Position 1 is the last residue of NS2A.
Six mutants with high scores were retested singly and none clearly outgrew wild type, so positive values are not proof of better growth.
The region was split into three libraries (1-103, 104-206, 207-308).